{
  "source": "paper PMC6318274",
  "about": "“Lattice engineering enables definition of molecular features allowing for potent small-molecule inhibition of HIV-1 entry” (Nature Communications, 2019)",
  "key": {"HIV-1 strain NL4-3": {"test_system": "HIV-1 strain NL4-3", "experiment": "Entry inhibition of laboratory-adapted HIV-1 strain NL4-3", "format": "cell-based", "settings": "NL4-3 EC50"}, "[1]": {"test_system": "HIV-1 Env-pseudoviruses (208-strain panel)", "format": "cell-based"}, "[2]": {"target": "BG505 DS-SOSIP.664 Env trimer (Human immunodeficiency virus 1, UniProt Q2N0S5, A430C/A498C/I200C/I556P/T330N/T602C, form not given)", "format": "binding, HIV-1", "settings": "ITC, 37 °C"}, "[3]": {"test_system": "HIV-1 Env-pseudoviruses (30-strain panel)", "experiment": "Neutralization assay, cross-clade 30-strain panel (Env-pseudoviruses, TZM-bl target cells)", "format": "cell-based"}},
  "note": "Where “and” joins values, the source holds several entries; their conditions need not be identical. Equal values may be shown once. Read-outs that look alike come from different tables or passages of the source.",
  "data": [
    {"smiles": "COc1cnc(-c2csc(C(=O)NCCO)n2)c2[nH]cc(C(=O)C(=O)N3CCC(=C(C#N)c4ccccc4)CC3)c12", "note": "[BMS-818251]", "values": [
      {"measurement": "fold more potent than BMS-626529", "setting": "HIV-1 strain NL4-3", "result": "~ 100 fold"},
      {"measurement": "fold difference of geometric mean IC50 compared to BMS-626529", "setting": "[1]; 208-strain panel", "result": 10.6, "unit": "fold"},
      {"measurement": "fold difference of median IC50 compared to BMS-626529", "setting": "[1]; 208-strain panel", "result": 18, "unit": "fold"},
      {"measurement": "fold more potent than temsavir", "setting": "[1]; cross-clade panel of 208 HIV-1 strains", "result": "> 10", "unit": "fold"},
      {"measurement": "fold higher affinity than BMS-626529", "setting": "[2]", "result": "~ 9 fold and 8.6 fold and ~ 10 fold"},
      {"measurement": "Fold improvement (BMS-818251 over BMS-814508)", "setting": "[3]", "result": "> 26.7"},
      {"measurement": "fold higher neutralization potency than BMS-626529", "setting": "[3]; 30-strain panel, geometric mean IC50", "result": "roughly 20 fold"},
      {"measurement": "Fold improvement (BMS-818251 over BMS-814508)", "setting": "[3]; 242-14 (Clade AG)", "result": "> 50.0", "unit": "fold"},
      {"measurement": "Fold improvement (BMS-818251 over BMS-814508)", "setting": "[3]; 247-23 (Clade D)", "result": "> 53.3", "unit": "fold"},
      {"measurement": "Fold improvement (BMS-818251 over BMS-814508)", "setting": "[3]; 0330.v4.c3 (Clade A)", "result": 24.0, "unit": "fold"},
      {"measurement": "Fold improvement (BMS-818251 over BMS-814508)", "setting": "[3]; 426c (Clade C)", "result": 90.0, "unit": "fold"},
      {"measurement": "Fold improvement (BMS-818251 over BMS-814508)", "setting": "[3]; 7165.18 (Clade B)", "result": 37.8, "unit": "fold"},
      {"measurement": "Fold improvement (BMS-818251 over BMS-814508)", "setting": "[3]; B41 (Clade B)", "result": "> 3.3", "unit": "fold"},
      {"measurement": "Fold improvement (BMS-818251 over BMS-814508)", "setting": "[3]; BJOX028000.10.3 (Clade AE)", "result": "> 5.5", "unit": "fold"},
      {"measurement": "Fold improvement (BMS-818251 over BMS-814508)", "setting": "[3]; BL01.DG (Clade B)", "result": 5.3, "unit": "fold"},
      {"measurement": "Fold improvement (BMS-818251 over BMS-814508)", "setting": "[3]; C4118.09 (Clade AE)", "result": 22.5, "unit": "fold"},
      {"measurement": "Fold improvement (BMS-818251 over BMS-814508)", "setting": "[3]; CAP210.E8 (Clade C)", "result": 18.2, "unit": "fold"},
      {"measurement": "Fold improvement (BMS-818251 over BMS-814508)", "setting": "[3]; CH119.10 (Clade BC)", "result": "> 13.3", "unit": "fold"},
      {"measurement": "Fold improvement (BMS-818251 over BMS-814508)", "setting": "[3]; CNE10 (Clade B)", "result": "> 13.3", "unit": "fold"},
      {"measurement": "Fold improvement (BMS-818251 over BMS-814508)", "setting": "[3]; CNE20 (Clade BC)", "result": 23.8, "unit": "fold"},
      {"measurement": "Fold improvement (BMS-818251 over BMS-814508)", "setting": "[3]; CNE56 (Clade AE)", "result": "> 8.5", "unit": "fold"},
      {"measurement": "Fold improvement (BMS-818251 over BMS-814508)", "setting": "[3]; DJ263.8 (Clade AG)", "result": 1.0, "unit": "fold"},
      {"measurement": "Fold improvement (BMS-818251 over BMS-814508)", "setting": "[3]; DU156.12 (Clade C)", "result": "> 66.7", "unit": "fold"},
      {"measurement": "Fold improvement (BMS-818251 over BMS-814508)", "setting": "[3]; KER2008.12 (Clade A)", "result": 15.0, "unit": "fold"},
      {"measurement": "Fold improvement (BMS-818251 over BMS-814508)", "setting": "[3]; MB201.A1 (Clade A)", "result": 13.7, "unit": "fold"},
      {"measurement": "Fold improvement (BMS-818251 over BMS-814508)", "setting": "[3]; NKU3006.ec1 (Clade D)", "result": "> 3.3", "unit": "fold"},
      {"measurement": "Fold improvement (BMS-818251 over BMS-814508)", "setting": "[3]; P0402.c2.11 (Clade G)", "result": "> 40.0", "unit": "fold"},
      {"measurement": "Fold improvement (BMS-818251 over BMS-814508)", "setting": "[3]; PVO.04 (Clade B)", "result": "> 6.7", "unit": "fold"},
      {"measurement": "Fold improvement (BMS-818251 over BMS-814508)", "setting": "[3]; R3265.c6 (Clade AE)", "result": 33.1, "unit": "fold"},
      {"measurement": "Fold improvement (BMS-818251 over BMS-814508)", "setting": "[3]; REJO.67 (Clade B)", "result": 6.1, "unit": "fold"},
      {"measurement": "Fold improvement (BMS-818251 over BMS-814508)", "setting": "[3]; T253-11 (Clade AG)", "result": 1.0, "unit": "fold"},
      {"measurement": "Fold improvement (BMS-818251 over BMS-814508)", "setting": "[3]; T280-5 (Clade AG)", "result": "> 2.7", "unit": "fold"},
      {"measurement": "Fold improvement (BMS-818251 over BMS-814508)", "setting": "[3]; ZM106.9 (Clade C)", "result": 62.0, "unit": "fold"},
      {"measurement": "fold more potent than VRC01", "setting": "[3]; per-kDa, per active site basis, geometric mean IC50", "result": "~ 30 fold"}
    ]}
  ]
}
